Anti-infective test results gathered from many reports (values: NIAID ChemDB through PubChem).

Common to all: tests on isolated targets; agent: HIV-1; target: Reverse transcriptase; endpoint: fold resistance

Two numbers with a dash give a range or band.

structure	changes	strain or isolate	method	result
CNS(=O)(=O)c1ccc(NC(=O)CSc2nnc(C(F)F)n2-c2ccc(C)c3ccccc23)c(Cl)c1	RT-Y188L		nucleotide incorporation / radiometric	>2
CCN1c2ncc(CCOc3ccc(/C=C(\C)C(=O)O)c4ccccc34)cc2C(=O)N(C)c2cccnc21	RT-K103N Y181C		nucleotide incorporation / radiometric	1–10
CCN1c2ncc(CCOc3cccc4c3ccc[n+]4[O-])cc2C(=O)N(C)c2ccc(Cl)nc21	RT-V106A		nucleotide incorporation / radiometric	94.4
O=c1cc(Cc2ccccc2)nc(NCCCCO)[nH]1	RT-V179D			>2.44
CCN1c2ncc(CCOc3ccc(CC(C)C(=O)O)c4ccccc34)cc2C(=O)N(C)c2ccc(C)nc21	RT-K103N Y181C		nucleotide incorporation / radiometric	1–10
CCOC(=O)c1c(C(C)C)c(C#N)c(=N)n2ccccc12	RT-Y188L			0.867
CCc1ccc(-n2c(SCC(=O)Nc3ccc(S(N)(=O)=O)cc3C)nnc2C(F)F)c2ccccc12	RT-Y181C		nucleotide incorporation / radiometric	>1
CC(C)=CCN1Cc2cccc3[nH]c(=S)n(c23)C[C@@H]1C	RT-Y181I		nucleotide incorporation	125
CCN1c2ncc(CCOc3ccc(/C=C(\C)C(=O)O)c4ccccc34)cc2C(=O)Nc2c(C)ccnc21	RT-K103N Y181C		nucleotide incorporation / radiometric	1–10
CCc1ccc(-n2c(C)nnc2SCC(=O)Nc2ccc(S(N)(=O)=O)cc2Cl)c2c1CCCC2	RT-Y181C		nucleotide incorporation / radiometric	>1
CCN1c2ncc(CCOc3ccc(CCC(=O)O)c4ccccc34)cc2C(=O)Nc2c(C)cc(F)nc21	RT-V106A		nucleotide incorporation / radiometric	1–10
Cc1cc(S(N)(=O)=O)ccc1NC(=O)COc1ccccc1C(=O)c1cc(Cl)cc(C#N)c1	RT-K103N Y181C	NNRTI-resistant	fluorescence	1.4
CCN1c2ncc(CCOc3ccc(CC(=O)NN)c4ccccc34)cc2C(=O)N(C)c2cccnc21	RT-Y188L		nucleotide incorporation / radiometric	1–10
CC(C)=CCOc1cc(NC(=S)c2ccoc2C)ccc1Cl	RT-Y181I			2.97
CCN1c2ncc(CCOc3ccc(CC(C)C(=O)O)c4ccccc34)cc2C(=O)Nc2c(C)ccnc21	RT-V106A		nucleotide incorporation / radiometric	>10
Cc1c(Cc2ccccc2)nc(NCCCCN)[nH]c1=O	RT-K103N			>10.3
O=C(CSc1nnc(C(F)F)n1-c1ccc(C2CC2)c2ccccc12)Nc1ccc(C(=O)O)cc1Cl	RT-Y188L		nucleotide incorporation / radiometric	>2
CCN1c2ncc(CCOc3ccc(/C=C/C(=O)O)c4ccccc34)cc2C(=O)Nc2c(C)ccnc21	RT-Y188L		nucleotide incorporation / radiometric	>10
CC[C@H](C)[C@H](NC(=O)c1ccc(NC(=O)CSc2nnc(Br)n2-c2ccc(C3CC3)c3ccccc23)c(Cl)c1)C(=O)O	RT-Y181C		nucleotide incorporation / radiometric	>1
CCc1cc(CCc2nc3ccccc3o2)c(=O)[nH]c1C	RT-Y188F		nucleotide incorporation	0.7
Cc1cc(S(N)(=O)=O)ccc1NC(=O)CSc1nnc(C)n1-c1ccc(C)c2c1CCCC2	RT-Y181C		nucleotide incorporation / radiometric	>2
CCN1c2ncc(CCOc3ccc(/C=C(\C)C(=O)O)c4ccccc34)cc2C(=O)N(C)c2ccc(Cl)nc21	RT-Y188L		nucleotide incorporation / radiometric	>10
CCc1ccc(-n2c(Br)nnc2SCC(=O)Nc2ccc(C(=O)N[C@H](C(=O)OC)C(C)C)cc2Cl)c2ccccc12	RT-Y188L		nucleotide incorporation / radiometric	<1
CCN1c2ncc(CCOc3ccc(C(=O)O)c4c3CCC4)cc2C(=O)N(C)c2ccc(Cl)nc21	RT-V106A		nucleotide incorporation / radiometric	1–10
Cc1cc(C)c2ccccc2c1-n1c(SCC(=O)Nc2ccc(S(N)(=O)=O)cc2Cl)nnc1C(F)(F)F	RT-Y188L		nucleotide incorporation / radiometric	>2
NCCCCNc1nc(Cc2ccccc2)cc(=O)[nH]1	RT-K103N			>14.3
CC(C)C[C@H](NC(=O)c1ccc(NC(=O)CSc2nnc(Br)n2-c2ccc(C3CC3)c3ccccc23)c(Cl)c1)C(=O)O	RT-Y188L		nucleotide incorporation / radiometric	>1
CC(C)=CCOc1cc(NC(=S)c2ccsc2C)ccc1Cl	RT-L100I			5.5

Rows are shuffled and stem from different studies. An empty or dashed field is not shown. Fold resistance has wild type as its base.